Reference: patent US20120219613A1 (priority 2009, published 2012)

Tested on: Adenovirus
Assay type: cell-based
Details: 10 μM, 293T and Vero cells, flow cytometry

Compound: C=CCN1C(=O)/C(=C/c2ccc(-c3ccccc3)o2)SC1=S [LJ-001, (Z)-3-Allyl-5-(5-phenyl-2-furyl)methylene-4-oxothiazolidine-2-thione]
- inhibition of Ad5-GFP infection: No inhibition
